Reference: patent US6479673B1, “Antiretroviral enantiomeric nucleotide analogs” (Institute of Organic Chemistry and Biochemistry of the …, priority 1992, dated 2002)

Tested on: Moloney murine sarcoma virus (MSV)
Assay: MSV infection in newborn NMRI mice, intraperitoneal administration
Assay type: in vivo
Description: Two gram newborn NMRI mice were injected intramuscularly in the left hind leg with 50 μl of 250-fold diluted stock preparation of Moloney murine sarcoma virus. Starting 2-4 hours before virus infection, each animal was injected intraperitoneally in groups of 10 with a single dose of test compound with 50, 20 or 10 mg/kg of the resolved compounds of the Formula I or prototype compounds (for abbreviations, see Footnote to Table 1); compounds (R)-PMPA and (R)-PMPDAP were administered also at the dose of S and 2 mg/kg. Another group of mice (20 animals) was administered RPMI-1640 medium as placebo. All compounds were solubilized in RPMI-1640 medium. The mice were observed daily for 20 days and the day of tumor initiation and the day of animal death was recorded for each animal. Statistical analyses were performed by calculating the standard deviation.

9-(S)-(2-Phosphonomethoxypropyl)adenine
Mean day of animal death (10 mg/kg single dose i.p.): 10.9 ± 0.88 days
Mean day of animal death (20 mg/kg single dose i.p.): 10.9 ± 0.88 days
